Laboratory results taken from US8822160B2, “Molecular adaptors” (dated 2014).

Experiments:
[1] = molecular target: T1, (M113F-RL2)6(M113C-D8RL2)1 (Staphylococcus aureus, UniProt P09616, G156S/I168L/K34A/M139C/M139F/N165Q/T289P/V150L); conditions: +100 mV, n=5
[2] = molecular target: (M113N-RL2)6(M113C-D8RL2)1 (Staphylococcus aureus, UniProt P09616, G156S/I168L/K34A/M139C/M139N/N165Q/T289P/V150L); conditions: ten attempts of 30 min each
[3] = molecular target: (M113N-RL2)6(T117C-D8RL3)1 (Staphylococcus aureus, UniProt P09616, G156S/I168L/K34A/M139N/N165Q/T143C/T289P/V150L)
[4] = molecular target: (M113F-RL2)6(M113C-D8RL2)1-βCD (Staphylococcus aureus, UniProt P09616, G156S/I168L/K34A/M139C/M139F/N165Q/T289P/V150L)
αHL (M113F-RL2)7 = αHL (M113F-RL2)7 (Staphylococcus aureus, UniProt P09616, G156S/I168L/K34A/M139F/N165Q/T289P/V150L); conditions: 25 mM Tris.HCl, pH 8.0, 1 M KCl
αHL (M113N-RL2)7 = αHL (M113N-RL2)7 (Staphylococcus aureus, UniProt P09616, G156S/I168L/K34A/M139N/N165Q/T289P/V150L); conditions: 25 mM Tris.HCl, pH 8.0, 1 M KCl, −100 mV
[5] = molecular target: T1, (M113F-RL2)6(M113C-D8RL2)1; conditions: 55° C., 25 mM Tris.HCl, pH 8.0, 1 M KCl, +100 mV

6-monodeoxy-6-[3-(2-pyridyldithio)propionyl]monoamino-β-cyclodextrin
duration of the transient state preceding the permanent block [1]: 48 ± 7 ms
covalent attachment of βCD-PDP to Cys-113 [2]: failed to occur
reversal of the permanent block ([3]; total of 24 h (over 16 experiments)): not reversed
lifetime of the intermediate state preceding the permanent block ([3]; −100 mV, n=5): 5 ± 2 ms

cis-lithocholic acid
signal on addition to the cis chamber ([4]; 50 μM cis, +100 mV, 25 mM Tris.HCl, pH 8.0, 1 M KCl (n=3)): no signal was observed
current block at the beginning and at the end of each event (level 2) ([4]; 50 μM trans, −100 mV): 92%
current block of the binding events (level 3) ([4]; 50 μM trans, −100 mV): 98%
duration of the 92% block at the beginning of each event ([4]; 50 μM trans, −100 mV): 200 ± 100 ms
duration of the 92% block at the end of the event ([4]; 50 μM trans, −100 mV): 150 ± 100 ms
mean τoff of the events ([4]; 50 μM trans, −100 mV, number of events=60): 8.6 ± 7.8 s

β-cyclodextrin
τoff of βCD (αHL (M113F-RL2)7; 50 μM βCD, −100 mV): 0.68 ± 0.12 s
current blockade by βCD (αHL (M113F-RL2)7; +100 mV): 70%
mean τoff of βCD non-covalently bound (αHL (M113F-RL2)7; +100 mV): 316 ± 62 ms
mean τoff of βCD non-covalently bound (αHL (M113N-RL2)7): 10.7 ± 1.5 s
τoff for βCD [5]: 56 ± 3.8 ms
